Measured values from several laboratories, pooled; numbers as filed in NIAID ChemDB.

Common to all: whole-cell or culture tests; organism: Hepatitis C virus

Two numbers with a dash give a range or band. Percent inhibition refers to the dose given; in toxicity tests it is the harm to the cells. Conditions beyond the fields shown may differ between rows. ECn: concentration that inhibits the pathogen or its effect by n%. Fold resistance: result on the changed form divided by that on wild type.

{"smiles": "CC1(C)CC(=O)C2=C(C1)Nc1c(O)cccc1N(C(=O)CCS(=O)(=O)c1ccccc1)C2c1ccc(OCc2ccccc2)cc1F", "read by": "luciferase / reporter gene / replicon", "read-out": "EC50", "strain": "1b", "result": "1.49 µM"}
{"smiles": "NC(=S)Nc1cccc(OCCCOc2ccc(-c3ccccc3)cc2)c1", "cells": "Ava5-EG(delta4AB)SEAP", "read by": "reporter gene / fluorescence", "read-out": "EC50", "result": "0.001–1 µM"}
{"smiles": "O=C(Nc1cccc(-c2cccc(F)c2)c1)C1CCN(Cc2ccc(O)cc2)CC1", "cells": "Huh7", "tested at": "5 µM", "read by": "PCR", "read-out": "inhibition", "strain": "JFH-1", "result": "≥40%"}
{"smiles": "COc1c(-c2ccc3cc(NS(C)(=O)=O)ccc3c2)cc(-n2ccc(=O)[nH]c2=O)cc1C(C)(C)C", "read by": "luciferase", "conditions": "40% human plasma", "read-out": "EC50", "strain": "genotype 1a H77", "result": "0.099 µM"}
{"smiles": "NC(=S)Nc1cccc(OCCCCCOc2ccc(N3CCSCC3)cc2)c1", "cells": "Ava5-EG(delta4AB)SEAP", "read by": "reporter gene / fluorescence", "read-out": "EC50", "result": "0.001–1 µM"}
{"smiles": "O=C(N[C@@H](C(=O)N1CCC[C@H]1c1ncc(-c2ccc(-c3ccc(-c4cnc([C@@H]5CCCN5C(=O)[C@H](NC(=O)C5CC5)c5ccccc5)s4)cc3)cc2)s1)c1ccccc1)C1CC1", "cells": "Huh7.5", "read by": "luciferase / reporter gene", "read-out": "fold resistance", "strain": "genotype 1b", "changes": "P58L", "result": "376"}
{"smiles": "COC(=O)N[C@H](C(=O)N1CCCC1c1ncc(-c2ccc(-c3ccc(-c4cnc([C@@H]5CC(C)CN5C(=O)[C@@H](NC(=O)CO)C(C)C)[nH]4)cc3)cc2)[nH]1)C(C)C", "cells": "Lunet", "read by": "luciferase", "read-out": "EC50", "strain": "1a", "changes": "Q30H", "result": "0.000708 µM"}
{"smiles": "O=C(Nc1ccc(Oc2ccccc2F)cc1)C1CCN(Cc2cccc3c2OCO3)CC1", "cells": "Huh7", "tested at": "5 µM", "read by": "PCR", "read-out": "inhibition", "strain": "JFH-1", "result": "≥40%"}
{"smiles": "Cc1ccc(C2C3=C(CC(C)(C)CC3=O)Nc3c(O)cccc3N2C(=O)C(C)C)c2ccccc12", "read by": "luciferase / reporter gene / replicon", "read-out": "EC50", "strain": "1b", "result": "1.12 µM"}
{"smiles": "NC(=S)Nc1cccc(OCCCCCCCOc2cccc3ccccc23)c1", "cells": "Ava5-EG(delta4AB)SEAP", "read by": "reporter gene / fluorescence", "read-out": "EC50", "result": "0.001–1 µM"}
{"smiles": "CSCCCN1CCC(C(=O)Nc2cccc(-c3cc4ccccc4[nH]3)c2)CC1", "cells": "Huh7", "tested at": "15 µM", "read by": "PCR", "read-out": "inhibition", "strain": "JFH-1", "result": "<40%"}
{"smiles": "CNC(=S)Nc1ccc2c(c1)Cc1cc(Br)ccc1-2", "cells": "Ava5-EG(delta4AB)SEAP", "read by": "reporter gene / fluorescence", "read-out": "EC50", "result": "0.001–1 µM"}
{"smiles": "CC1CCC(C(=O)N(c2cc(C#CC(C)(C)C)sc2C(=O)O)C2CCC(O)CC2)CC1", "cells": "Huh7", "read by": "luciferase", "read-out": "fold resistance", "strain": "H77 (GT1a)", "changes": "M423T", "result": "28.3"}
{"smiles": "COc1cccc(OCCCCCOc2cccc(NC(N)=S)c2)c1", "cells": "Ava5-EG(delta4AB)SEAP", "read by": "reporter gene / fluorescence", "read-out": "EC50", "result": "0.001–1 µM"}
{"smiles": "COc1cccc(C)c1CN1CCC(C(=O)Nc2cccc(-c3cccc(F)c3)c2)CC1", "cells": "Huh7", "tested at": "15 µM", "read by": "PCR", "read-out": "inhibition", "strain": "JFH-1", "result": "≥40%"}
{"smiles": "CC1(C)CC(=O)C2=C(C1)Nc1c(O)cccc1N(C(=O)c1cc(-c3ccccc3)on1)C2c1ccc(OCc2ccccc2)cc1F", "read by": "luciferase / reporter gene / replicon", "read-out": "EC50", "strain": "1b", "result": "4.68 µM"}
{"smiles": "CN(C)CCNC(=S)Nc1ccc2c(c1)Cc1cc(Br)ccc1-2", "cells": "Ava5-EG(delta4AB)SEAP", "read by": "reporter gene / fluorescence", "read-out": "EC50", "result": "0.001–1 µM"}
{"smiles": "CC1(C)CC(=O)C2=C(C1)Nc1c(O)cccc1N(C(=O)CCC(=O)NCc1ccsc1)C2c1ccc(OCc2ccccc2)cc1Cl", "read by": "luciferase / reporter gene / replicon", "read-out": "EC50", "strain": "1b", "result": "11.36 µM"}
{"smiles": "NC(=S)Nc1cccc(OCCCCc2ccccc2)c1", "cells": "Ava5-EG(delta4AB)SEAP", "read by": "reporter gene / fluorescence", "read-out": "EC50", "result": "0.001–1 µM"}
{"smiles": "CC1(C)CC(=O)C2=C(C1)Nc1c(O)cccc1N(C(=O)CCC(=O)N1Cc3ccccc3C1)C2c1ccc(OCc2ccccc2)cc1Cl", "read by": "luciferase / reporter gene / replicon", "read-out": "EC50", "strain": "1b", "result": "5.56 µM"}
{"smiles": "COc1cccc(CN2CCC(C(=O)Nc3ccccc3-c3cccc(OC)c3)CC2)c1", "cells": "Huh7", "tested at": "15 µM", "read by": "PCR", "read-out": "inhibition", "strain": "JFH-1", "result": "≥40%"}